Taken from: PubChem BioAssay AID504761 (Drosophila RNAi Screening Center, 2011)

- Screen: 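Fly genes whose silencing reduces dengue virus type 2 infection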 (primary screen)
- System: D.Mel-2 cells from Drosophila
- Reagent: long dsRNA against Drosophila genes
- Treatment: infection with dengue virus type 2; dose and infection time not stated
- Measurement: 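Per well on two replicate plates, imaging gave the percent of cells positive for viral envelope protein, ranked by infection, and a nuclear count of cells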
- Reading the numbers: infection score: higher = more virus-infected cells; cell count: higher = more cells in the well
- Call rule: 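Low infection ranks in the two replicates (chance level up to 0.065) followed by a retest with a 1.5-fold or larger significant decrease, p below 0.05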
- Meaning of the calls: active = confirmed: knock-down lowers infection; inactive = not picked or not confirmed
The screen tested about 22,000 reagents; below is an unselected part of those with a known target gene and a result. In the full data, 116 (0.52%) got an active call. 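Calls depend on retest data that are not deposited; infection was ranked per plate without normalising between plates; the unit of the infection score is not given.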 The raw values are shown without normalisation. Not given: the amount of reagent, the time to read-out.

predicted target | dsRNA | infection score, replicate 1 | infection score, replicate 2 | cell count, replicate 1 | cell count, replicate 2 | outcome
CG2269 | DRSC06833 | 6.45 | 7.34 | 6095 | 6498 | inactive
Abcd3 | DRSC19488 | 8.77 | 2.67 | 4924 | 5652 | inactive
Abcd3 | DRSC29341 | 18.9 | 4.84 | 4510 | 3409 | inactive
Zip71B | DRSC09686 | 1.24 | 2.8 | 6051 | 6350 | inactive
Zip71B | DRSC29491 | – | 0.5 | 321 | 403 | inactive
FoxP | DRSC15159 | 10 | 1.35 | 6122 | 6374 | inactive
FoxP | DRSC21961 | 2.81 | 4.46 | 6449 | 6340 | inactive
FoxP | DRSC29407 | 3.26 | – | 1013 | 462 | inactive
Gs1 | DRSC00753 | 2.94 | – | 6459 | 452 | inactive
Gs1 | DRSC28916 | 12 | – | 2508 | 396 | inactive
Vsp37A | DRSC18794 | 5.47 | 5.62 | 6660 | 6714 | inactive
Ssl1 | DRSC11634 | 9.15 | 5.99 | 2941 | 6464 | inactive
Cyp4ae1 | DRSC18455 | 1.75 | 2.28 | 6625 | 6052 | inactive
Cyp4ae1 | DRSC27698 | 11.7 | 28.2 | 6921 | 2732 | inactive
CG8028 | DRSC20075 | 1.84 | 2.46 | 5877 | 5932 | inactive
l(2)37Cd | DRSC02069 | 3.55 | 8.43 | 6395 | 6286 | inactive
Bx | DRSC23048 | 2.64 | 4.53 | 6369 | 5767 | inactive
Bx | DRSC28506 | 9.87 | 8.7 | 4317 | 5060 | inactive
Hmr | DRSC17740 | 1.2 | 2.85 | 6476 | 6458 | inactive
CheB42c | DRSC04972 | 4.89 | 0.29 | 1921 | 691 | inactive
CheB42c | DRSC27357 | 11.2 | 32.6 | 6803 | 5797 | inactive
Sse | DRSC09746 | 4.73 | 6.16 | 3426 | 3847 | inactive
Pez | DRSC03397 | 11 | 4.52 | 5678 | 6764 | inactive
Pez | DRSC27921 | 26.6 | 10.1 | 6436 | 6344 | inactive
SF2 | DRSC16845 | 11.3 | 6.02 | 5141 | 830 | inactive
Obp19a | DRSC20487 | 6.97 | 0.92 | 5513 | 5990 | inactive
Tmx3 | DRSC10471 | 9.94 | 5.74 | 2979 | 6616 | inactive
NaCP60E | DRSC04307 | 33.6 | 45.4 | 6265 | 5311 | inactive
NaCP60E | DRSC21351 | 4.29 | 14.4 | 5717 | 6305 | inactive
NaCP60E | DRSC26120 | 2.89 | 4.56 | 6158 | 5661 | inactive
CG31102 | DRSC14260 | 10.3 | – | 6037 | 365 | inactive
CG31102 | DRSC26350 | 7.65 | 5.11 | 5674 | 6812 | inactive
Arf1 | DRSC11606 | 6.65 | 13.6 | 6088 | 6500 | inactive
Jon66Ci | DRSC10772 | 0.71 | 1.48 | 6220 | 6138 | inactive
Jon66Ci | DRSC26520 | 2.68 | 4.48 | 6452 | 5873 | inactive
CG4613 | DRSC10435 | 1.31 | 1.81 | 6109 | 6288 | inactive
CG4613 | DRSC25652 | 8.58 | 13.4 | 6176 | 6870 | inactive
CycT | DRSC11124 | 12.6 | 19.8 | 1554 | 1564 | inactive
CycT | DRSC23304 | 1.23 | 2.18 | 6243 | 5417 | inactive
CycT | DRSC29416 | 25.2 | 9.82 | 2977 | 835 | inactive

4 of these entries in another layout.
| predicted target | dsRNA | infection score, replicate 1 | infection score, replicate 2 | cell count, replicate 1 | cell count, replicate 2 | outcome |
| --- | --- | --- | --- | --- | --- | --- |
| Arf1 | DRSC11606 | 6.65 | 13.6 | 6088 | 6500 | inactive |
| Jon66Ci | DRSC10772 | 0.71 | 1.48 | 6220 | 6138 | inactive |
| Jon66Ci | DRSC26520 | 2.68 | 4.48 | 6452 | 5873 | inactive |
| CG4613 | DRSC10435 | 1.31 | 1.81 | 6109 | 6288 | inactive |
